The source of these data is US20140294925A1 (priority 2013, published 2014).

The subject of assay [1] is vancomycin-resistant Enterococci. As to conditions: humans, 200, 400 or 800 mg/kg doses twice daily; cited from earlier work.
Assay [2] concerns multidrug-resistant C. difficile ATCC BAA1382 (MDR-CD).

Regarding ramoplanin, in assay [1], the “safety and suppression of asymptomatic gastrointestinal carriage of VRE” value was “safe and effective”. In assay [2], the “MIC (individ.)” value is 0.25 µg/mL and the “MIC for ramoplanin alone” value is 0.25 µg/mL.
